Data as given in US20150196025A1, “BIOACTIVE HEME-HALOPEROXIDASE COMPOSITIONS AND METHODS OF THEIR USE” (Exoxemis, Inc., priority 2014, published 2015).
This is a selection: effects in other tests are not listed, and their absence says nothing.

Test system: S. aureus
Test: Microbicidal plate assay, pEPO with amine additives, aged 0 or 5 minutes with H2O2 (Example 7)
Format: cell-based, Staphylococcus aureus
Conditions: Plate 4 versus Plate 1, aged 0 min; 3 mM additive

## OCCN(CCO)CCO
  effect of additive on pEPO bioactivity: inhibitory
